Reference: ChEMBL document CHEMBL1129527, “Synthesis, chromatographic resolution, and anti-human immunodeficiency virus activity of (+/-)-calanolide A and its enantiomers” (J Med Chem, 1996)

How the values were obtained:
[1] = system: HIV-1 reverse transcriptase (Human immunodeficiency virus 1); test: Percent inhibition against DNA -dependent DNA polymerase (DDDP) of HIV-1 RT Nucleic Acid polymerase at dose 200 ug/mL
[2] = system: HIV-1 reverse transcriptase (Human immunodeficiency virus 1); test: Percent inhibition against RNA-dependent DNA polymerase (RDDP) of HIV-1 RT Nucleic Acid polymerase at dose 200 ug/mL
[3] = Percent inhibition against TIBO-resistant HIV-1 RT Nucleic Acid polymerase at dose 200 ug/mL; details: Human immunodeficiency virus 1

Row | SMILES | inhibition [1] | inhibition [2] | inhibition [3]
1 | CCCc1cc(=O)oc2c3c(c4c(c12)OC(C)(C)C=C4)O[C@@H](C)C(C)[C@@H]3O (mixture of isomers) | 80.1% | 97.6% | 81.2%
2 | CCCc1cc(=O)oc2c3c(c4c(c12)OC(C)(C)C=C4)O[C@H](C)[C@@H](C)[C@@H]3O [CALANOLIDE A] | – | – | 91.5%
3 | CCCc1cc(=O)oc2c3c(c4c(c12)OC(C)(C)C=C4)O[C@@H](C)[C@H](C)[C@@H]3O [COSTATOLIDE] | – | – | 0%
